Data as given in PubChem BioAssay AID504761 (Drosophila RNAi Screening Center, 2011)

Aim: 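Fly genes whose silencing reduces dengue virus type 2 infection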 (primary screen)
Cells: D.Mel-2 cells from Drosophila
Knock-down reagent: long dsRNA against Drosophila genes
Treatment: infection with dengue virus type 2; dose and infection time not stated
Measurement: 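Cells stained for dengue envelope protein and imaged; percent of infected cells per well on duplicate plates, ranked by infection, with stained nuclei counted for cell number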
Direction: infection score: higher = more virus-infected cells; cell count: higher = more cells in the well
Active means: 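Low infection ranks in the two replicates (chance level up to 0.065) followed by a retest with a 1.5-fold or larger significant decrease, p below 0.05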
Meaning of the calls: active = confirmed: knock-down lowers infection; inactive = not picked or not confirmed
In all, the deposit lists about 22,000 reagents; shown is an unselected part of those that have a named target and a result. Over the whole deposit, 116 (0.52%) got an active call. 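Calls depend on retest data that are not deposited; infection was ranked per plate without normalising between plates; the unit of the infection score is not given.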 Raw values are not corrected between plates. Entries without a mark were called inactive. Further read-outs or replicates are left out here. The record does not give: the amount of reagent, the time to read-out.

Which result is listed for InR (GeneID 42549) [DRSC16717]?
infection score, replicate 1: 4.04; cell count, replicate 1: 6898

What did the screen give for Mct1 (GeneID 31198) [DRSC18681]?
infection score, replicate 1: 14.7; cell count, replicate 1: 5964

For Mct1 (GeneID 31198) [DRSC29006], what was measured?
infection score, replicate 1: 23.1; cell count, replicate 1: 6074

What did the screen give for CG42788 (GeneID 41817) [DRSC15330]?
infection score, replicate 1: 10; cell count, replicate 1: 5437

With CG42788 (GeneID 41817) [DRSC16139], how do the results read?
infection score, replicate 1: 5.24; cell count, replicate 1: 5900

How did the screen score CG42788 (GeneID 41817) [DRSC16152]?
infection score, replicate 1: 17.6; cell count, replicate 1: 6295

How did the screen score CG42788 (GeneID 41817) [DRSC27590]?
infection score, replicate 1: 4.74; cell count, replicate 1: 6673

With Sec20 (GeneID 40724) [DRSC12295], what was measured?
infection score, replicate 1: 2.69; cell count, replicate 1: 5906

Which result is listed for Sec20 (GeneID 40724) [DRSC29886]?
infection score, replicate 1: 17.7; cell count, replicate 1: 6259

How did the screen score CG8142 (GeneID 32763) [DRSC20086]?
infection score, replicate 1: 20.3; cell count, replicate 1: 3910

How did the screen score CG8142 (GeneID 32763) [DRSC26373]?
infection score, replicate 1: 8.83; cell count, replicate 1: 4904

How did the screen score zld (GeneID 32994) [DRSC23098]?
infection score, replicate 1: 1.33; cell count, replicate 1: 6450

With zld (GeneID 32994) [DRSC25802], what does the deposit list?
infection score, replicate 1: 1.9; cell count, replicate 1: 6542

With RYa-R (GeneID 43253) [DRSC16757], what was measured?
infection score, replicate 1: 4.13; cell count, replicate 1: 6366

Laid out differently: entries from further up
{"gene":"CG8142 (GeneID 32763)","amplicon":"DRSC26373","infection score, replicate 1":8.83,"cell count, replicate 1":4904}
{"gene":"zld (GeneID 32994)","amplicon":"DRSC23098","infection score, replicate 1":1.33,"cell count, replicate 1":6450}
